Drawing on patent US20230013669A1, “Antibacterial Treatment Using a Cannabinoid and an Active Agent” (priority 2019, published 2023), this text covers FICI range for one compound.

Several values for one entry are separate records, joined by “and”; a condition that tells them apart may be missing. Equal values may be shown once.

Assay in all cases: Synergy of cannabidiol with cell-wall disrupting agent (CBD MIC in combination, FICI)
Type in all cases: cell-based

The test system of test [1] is Acinetobacter baumannii 03.021.1 (GN_038), Colistin resistant. Here is the method: (§1) The compounds were stored short term at 4° C.
(§2) Analysis was performed using Microsoft Excel.

For test [2], the system named is Acinetobacter baumannii 03.021.1 (GN_039), Colistin resistant. The procedure: as §1, §2
Test [3] concerns Pseudomonas aeruginosa FADDI-PA067 (GN_177), Polymyxin resistant. The conditions noted are these: Example 8, CBD + MCC_00636, calculated with CBD MIC 256 μg/mL. The procedure: as §1, §2
[4] abbreviates: Example 8, CBD + MCC_00636, calculated with CBD MIC 256 μg/mL.
The mark [5] stands for this setting: Example 9, CBD + MCC_09222, calculated with CBD MIC 256 μg/mL, listed as CBD.

Consider `C=C(C)C1CCC(C)=CC1c1c(O)cc(CCCCC)cc1O` (centres unmarked) [Cannabidiol, 2-[3-methyl-6-(1-methylethenyl)-2-cyclohexen-1-yl]-5-pentyl-1,3-benzenediol], for which the FICI range in test [1] (setting [4]) is 0.25-1.06; in test [1] (setting [5]) it was 0.07-1.03; in test [2] (setting [4]), 0.14-1.06; in test [2] (setting [5]), 0.07-1.03 and 0.08-1.03; in test [3] it was 0.27-2.
